# Assay results reported in PMC11586414, “Structural insight into the distinct regulatory mechanism of the HEPN–MNT toxin-antitoxin system in Legionella pneumophila” (Nature Communications, 2024).
# Substitutions are numbered along the chain they refer to. Numbers in names are those of the source.
# B1: HEPN^Lpg Q64A (natural protein)
# chain: MTNIDVRWQQRLNNYARALQQLSLAVNLAQTRPLSDLEKQGLIQAFEFTHELAWNVMKDYFFFAGNSAITGSRDATRESFNKGLIKEGEIWMEMIKSRNQTSHTYNQSVADEIVKNIINFYHTSFQAFLEKMQGLKEHE
# B2: HEPN^Lpg R73A (natural protein)
# chain: B1 chain with A64Q, R73A
# Biological target: the molecule itself
# Experiment: AUC
row,Protein,stoichiometry N
1,B1,2
2,B2,2
